Compound potency records, mixed from different reports. Data source: NIAID ChemDB in PubChem.

All rows: enzyme or target tests; organism: HIV-1; protein: Reverse transcriptase; read-out: inhibition

Rows are shuffled and stem from different studies. Two numbers with a dash give a range or band. Inhibition is in % at the dose shown (toxicity tests: loss of growth or viability). An empty or dashed field is not shown.

| smiles | read by | strain | mutations | dose | result |
|---|---|---|---|---|---|
| O=C(O)CP(=O)(O)O | ELISA | - | - | 70 µM | 0% |
| O=C(/C=C/c1ccc(O)c(O)c1)O[C@H]1[C@H](O)C[C@](O)(C(=O)O)C[C@H]1OC(=O)/C=C/c1ccc(O)c(O)c1 | RT activity / absorbance | - | - | 100 µg/mL | 44% |
| Cc1cc(O)c2c(c1)C(O)C=CC2=O | RT activity | - | - | 100 µg/mL | 17% |
| Cc1coc(N2C(=O)CSC2c2c(Cl)ncnc2Cl)n1 | RT activity / ELISA / absorbance | - | - | 10 µg/mL | 16.72% |
| O=c1c2cccc(O)c2oc2cccc(O)c12 | RT activity / radiometric | - | - | 200 µg/mL | 21.97% |
| CC[C@H](C)[C@H]1NC(=O)[C@@H](NC(=O)[C@@H](CC(C)C)N(C)S(=O)(=O)c2ccc(C)cc2)[C@@H](C)OC(=O)[C@H](Cc2ccc(OC)cc2)N(C)C(=O)[C@@H]2CCCN2C(=O)[C@H](CC(C)C)NC(=O)[C@H](C(C)C)OC(=O)C[C@@H]1O | nucleotide incorporation | - | - | 0.1 µg/mL | ~0% |
| O=C(OC[C@H](OC(=O)c1ccc(O)cc1)[C@@H](COC(=O)c1ccc(O)cc1)OC(=O)c1ccc(O)cc1)c1ccc(O)cc1 | nucleotide incorporation | - | - | 50 µM | >99% |
| COc1c(O)ccc2c(=O)c3c(O)cccc3oc12 | RT activity / radiometric | - | - | 200 µg/mL | 18.31% |
| O=C(/C=C/c1ccc(O)cc1)O[C@H]1[C@@H]2C=CO[C@@H](OC3OC(CO)C(O)C(O)C3O)[C@@H]2[C@@]2(CO)O[C@@H]12 | RT activity / fluorescence | MC99 | - | 200 µg/mL | 12.6% |
| CCc1c(Sc2ccccn2)n(COCc2ccccc2)c(=O)[nH]c1=O | - | - | RT-L100I | 50 µM | 90% |
| O=C(O)/C=C/c1ccc(O)cc1 | RT activity / fluorescence | MC99 | - | 200 µg/mL | 3.7% |
| Cc1nc(N2C(=O)CSC2c2c(F)cccc2F)ccc1Br | ELISA | - | - | 10 µg/mL | 34% |
| Cc1cc(O)c2c(c1)C(=O)C=CC2=O | RT activity | - | - | 25 µg/mL | 94% |
| COc1cc(OC)nc(N2C(=O)CSC2c2c(Cl)ncnc2Cl)n1 | RT activity / ELISA / absorbance | - | - | 100 µg/mL | 61.38% |
| CC1OC(OC2C(Oc3cc(O)c4c(=O)c(O)c(-c5ccc(O)c(O)c5)oc4c3)OC(CO)C(O)C2O)C(O)C(O)C1O | RT activity / fluorescence | MC99 | - | 200 µg/mL | 60.9% |
| O=C1CSC(c2c(Cl)cccc2Cl)N1n1cnnc1 | RT activity / ELISA / absorbance | - | - | 10 µg/mL | 16.72% |
| Cc1ccccc1NC(=O)CCN1CCc2ccccc2C1 | RT activity / nucleotide incorporation | - | - | 40 µM | 44% |
| C/C=C/c1occ(C(=O)c2c(OC)cc(OC)cc2C(=O)OC)c(=O)c1OC | nucleotide incorporation | - | - | 100 µM | 0% |
| Cc1cc(C)nc(N2C(=O)CSC2c2c(Cl)ncnc2Cl)n1 | RT activity / ELISA / absorbance | - | - | 10 µg/mL | 43.18% |
| CC/C=C\C/C=C\C/C=C\CCCCCCCC(=O)OC[C@H](CO[C@@H]1O[C@H](CO)[C@H](O)[C@H](O)[C@H]1O)OC(=O)CCCCCCCCCCCCCCC | nucleotide incorporation / radiometric | - | - | 10 µM | 65% |
| CC1(C)C=Cc2c(O)c(C(=O)c3ccccc3)c3c(c2O1)C=CC(C)(C)O3 | RT activity / radiometric | - | - | 200 µg/mL | 36.42% |
| COc1cc(O)c2c(=O)cc(-c3ccc(O)cc3)oc2c1 | RT activity / absorbance | - | - | 100 µg/mL | 46.2% |
| Cc1cc(O)c2c(c1)C(=O)C(c1c(C)cc3c(c1O)C(=O)C=CC3=O)=CC2=O | RT activity | - | - | 100 µg/mL | 29% |
| CSCCN1C(=O)c2ccccc2Oc2nc(Cl)ccc21 | HPLC | - | - | 1 µM | 72% |
| Cc1cn([C@H]2CC[C@@H](CC(F)(F)P(=O)(O)OP(=O)(O)C(F)(F)P(=O)(O)O)O2)c(=O)[nH]c1=O | fluorescence | - | - | 10 µM | 41–58% |
| Cc1cc2c(c(O)c1-c1c(C)cc(O)c3c1C(=O)C=CC3=O)C(=O)C=CC2=O | RT activity | - | - | 100 µg/mL | 10% |
| COC(=O)C(=O)OC1(C(=O)O)C[C@@H](OC(=O)/C=C/c2ccc(O)c(O)c2)C(O)[C@H](OC(=O)/C=C/c2ccc(O)c(O)c2)C1 | - | LAI | - | 50 µg/mL | 88% |
| O=C(c1cc(O)cc(O)c1)c1c(O)cc(O)cc1O | RT activity / radiometric | - | - | 200 µg/mL | 95.68% |
| O=C(/C=C/c1ccc(O)c(O)c1)O[C@@H]1CC(O)(C(=O)O)C[C@@H](OC(=O)/C=C/c2ccc(O)c(O)c2)C1O | - | LAI | - | 5 µg/mL | 18% |
| COc1cc2oc3c4c(ccc3c(=O)c2c2c1C=CC(C)(C)O2)OCO4 | RT activity / radiometric | - | - | 200 µg/mL | 36.42% |
| O=C1CSC(c2c(Cl)cccc2Cl)N1C1CCCCC1 | ELISA | - | - | 10 µg/mL | 10.08% |
| Oc1cc(O)c2c(c1)O[C@H](c1ccc(O)c(O)c1)[C@H](O)C2 | nucleotide incorporation | - | - | 20 µg/mL | 22% |
| Cc1cn([C@H]2C[C@H](N=[N+]=[N-])[C@@H](CP(=O)(O)OP(=O)(O)OP(=O)(O)O)O2)c(=O)[nH]c1=O | fluorescence | - | - | 10 µM | 30–44% |
| CC1=C(/C=C/C(C)=C/C=C/C(C)=C/C(=O)O)C(C)(C)CCC1 | ELISA | - | - | 10 µM | 16% |
| Cc1cn([C@H]2CC[C@@H](CC(F)(F)P(=O)(O)OP(=O)(O)OP(=O)(O)O)O2)c(=O)[nH]c1=O | fluorescence | - | - | 10 µM | 41–58% |
| CCN1c2ncccc2-c2cnc(C)n2-c2ccc(-c3cn[nH]c3)nc21 | nucleotide incorporation | LAV | RT-Y181C | 1 µM | 88% |
| Cc1ccc2c(c1O)C(=O)C=CC2=O | RT activity | - | - | 100 µg/mL | 100% |
| CC1(C)CC[C@]2(C(=O)O)CC[C@]3(C)C(=CCC4[C@@]5(C)CC[C@H](O)C(C)(C)[C@@H]5CC[C@]43C)C2[C@@H]1O | RT activity / fluorescence | MC99 | - | 200 µg/mL | 37% |
| CC(=O)c1ccc(C)cc1NC(C(N)=O)c1c(Cl)cccc1Cl | - | - | - | 20 µg/mL | 95.2% |
| Cc1cn([C@H]2C[C@H](N=[N+]=[N-])[C@@H](CP(=O)(O)OP(=O)(O)NP(=O)(O)O)O2)c(=O)[nH]c1=O | fluorescence | - | - | 10 µM | 30–44% |
| O=C1CN=C(c2ccc[nH]2)c2cc(Cl)ccc2N1 | ELISA | - | - | 25 µM | 6% |
| CC(C)(C)c1coc(N2C(=O)CSC2c2c(Cl)ncnc2Cl)n1 | RT activity / ELISA / absorbance | - | - | 100 µg/mL | 31.14% |
| COc1cc(-c2cc(O)c(OC)c(OC)c2)ccc1O | RT activity / radiometric | - | - | 200 µg/mL | -2.53% |
| O=c1c(O)c(-c2ccc(O)c(O)c2)oc2cc(O)cc(O)c12 | RT activity / ELISA | - | - | 200 µg/mL | 43.41% |
| O=c1c(OC2OC(CO)C(O)C(O)C2O)c(-c2ccc(O)c(O)c2)oc2cc(O)cc(O)c12 | RT activity / fluorescence | MC99 | - | 200 µg/mL | 44.2% |
| COc1cc(C)c(Cl)c2c1C(=O)C=CC2=O | RT activity | - | - | 25 µg/mL | 50% |
| O=c1cc(-c2ccccc2)oc2cc(O)c(O)c(O)c12 | nucleotide incorporation | - | - | 2 µg/mL | 70% |
| CN(c1ncccc1CO)C1CCN(C(=O)c2cc3cc(NS(C)(=O)=O)ccc3[nH]2)CC1 | nucleotide incorporation | IIIB | RT-P236L | 50 µM | 7% |
| COc1c(OC)c(O)c2c(=O)c(OC)c(-c3ccc(C)cc3)oc2c1OC | RT activity / ELISA | - | - | 200 µg/mL | 35.35% |
| Cc1ccc(N2C(=O)CSC2c2c(Cl)ncnc2Cl)nc1 | RT activity / ELISA / absorbance | - | - | 100 µg/mL | 31.44% |
| CC1(C)C=Cc2c(cc(O)c3c(=O)c4cccc(O)c4oc23)O1 | RT activity / radiometric | - | - | 200 µg/mL | 30.17% |
| Cc1cccc(N2C(=O)CSC2c2ccc(N(C)C)cc2)n1 | ELISA | - | - | 10 µg/mL | 34.12% |
| COc1cc2oc(-c3ccc(O)cc3)cc(=O)c2c(O)c1OC | RT activity / absorbance | - | - | 100 µg/mL | 55% |
| O=C1CCSC(c2c(F)cccc2F)N1Cc1ccco1 | ELISA | - | - | 10 µg/mL | 51.6% |
| CCN1c2ncccc2C=Cc2cccnc21 | nucleotide incorporation | - | RT-L100I | 1 µM | 80% |
| COc1c2c(c3c(c1C(=O)c1cccc(O)c1)OC(C)(C)C=C3)OC(C)(C)C=C2 | RT activity / radiometric | - | - | 200 µg/mL | 10.08% |

A second listing of 3 rows from above:

smiles,read by,strain,mutations,dose,result
CC1OC(OC2C(Oc3cc(O)c4c(=O)c(O)c(-c5ccc(O)c(O)c5)oc4c3)OC(CO)C(O)C2O)C(O)C(O)C1O,RT activity / fluorescence,MC99,-,200 µg/mL,60.9%
O=C1CSC(c2c(Cl)cccc2Cl)N1C1CCCCC1,ELISA,-,-,10 µg/mL,10.08%
O=C(/C=C/c1ccc(O)cc1)O[C@H]1[C@@H]2C=CO[C@@H](OC3OC(CO)C(O)C(O)C3O)[C@@H]2[C@@]2(CO)O[C@@H]12,RT activity / fluorescence,MC99,-,200 µg/mL,12.6%